Assay results reported in patent US9598459B2, “Pharmaceutical compositions and methods” (priority 2015, dated 2017).

Tests used:
[1] = test system: Enterovirus D68 US/KY/14-18953; assay: Enterovirus D68 antiviral screen in RD; assay type: cell-based; set-up: SI50: unit not given beside the values
HIV-1 strain LAI = assay: HIV-1 replication reverse transcriptase (RT) assay in PBMC; assay type: cell-based, human immunodeficiency virus type 1; conditions: for SI50: CC50/EC50; for SI50 (CC50/EC50): HIV-1LAI
Dengue 2 = assay: Dengue virus antiviral screen in HUH7; assay type: cell-based, dengue virus type 2; conditions: CC50/EC50
Yellow Fever 17D Vaccine = assay type: cell-based, yellow fever virus; set-up: SI50: unit not given beside the values
Yellow fever virus 17D = assay type: cell-based; set-up: SI50: unit not given beside the values
Zika virus MR766 = assay: Zika virus antiviral screen in HuH-7; assay type: cell-based; conditions: for SI90: CC50/EC90; for SI50 (CC50/EC50): Table 10
Tacaribe TRVL11573 = assay type: cell-based, Tacaribe virus; set-up: unit not given beside the values; conditions: Vero
Poliovirus type 3 WM-3 = assay type: cell-based; set-up: SI90: unit not given beside the values; conditions: for SI50: ratio CC50 / EC50
[2] = test system: Enterovirus 71 Tainan/4643/98; assay type: cell-based; set-up: SI90: unit not given beside the values
[3] = test system: Venezuelan equine encephalitis TC-83; assay type: cell-based, Venezuelan equine encephalitis virus; set-up: SI50: unit not given beside the values
[4] = test system: Respiratory syncytial type A A2 (VR-1540); assay: Respiratory syncytial virus type A antiviral screen in MA-104; assay type: cell-based; conditions: for SI50: CC50/EC50
[5] = test system: Norwalk virus (replicon) GT1; assay: Norwalk virus replicon (GT1) in HG23, RNA hybridization; assay type: cell-based, Norwalk virus (human norovirus); set-up: SI90: unit not given beside the values; conditions: for SI50 (CC50/EC50): Norwalk replicon, HG23, Table 10
MNV MNV-1 = assay: Murine norovirus (MNV-1) antiviral screen in RAW267.4; assay type: cell-based; set-up: SI90: unit not given beside the values
[6] = test system: swine-origin pandemic influenza A (H1N1) virus; assay type: cell-based; set-up: unit not given beside the values
[7] = test system: Herpes simplex virus type 1 E-377; assay: Herpes simplex virus type 1 antiviral screen in primary HFF-1 (CellTiter-Glo); assay type: cell-based; conditions: CC50/EC50
[8] = test system: MERS coronavirus HCoV-EMC/2012; assay type: cell-based; set-up: unit not given beside the values
[9] = test system: Vaccinia virus Copenhagen; assay type: cell-based; conditions: CC50/EC50; Primary HFF-1, CellTiter-Glo
HIV-1 LAV = assay: Inhibition of inducible HIV-1 LAV replication in OM-10.1 (RT values); assay type: cell-based, human immunodeficiency virus type 1; conditions: for ANTIVIRAL INDEX (AI) 50% / ANTIVIRAL INDEX (AI) 90% / ANTIVIRAL INDEX (AI) 95%: OM-10.1
Rift Valley fever MP-12 = assay type: cell-based, Rift Valley fever virus; set-up: SI50: unit not given beside the values
[10] = test system: Japanese encepahalitis virus SA-14; assay: Japanese encephalitis virus antiviral screen in Vero 76; assay type: cell-based; set-up: unit not given beside the values; conditions: JEV
[11] = test system: West Nile virus Kern 515, WN02; assay: West Nile virus antiviral screen in Vero 76; assay type: cell-based; set-up: unit not given beside the values
[12] = Neutral Red, Zika, Example 9, ratio CC50 / EC50
[13] = Zika MR-766, HUH7, Tables 2-3, ratio CC50 / EC50
[14] = CC50/EC50, Vero 76, Neutral red
[15] = Enterovirus 71, Vero 76, Table 10
[16] = CC50/EC50, Norovirus/1968/US, HG23, Replicon
[17] = NV GT1, Example 10, listed as 16-000162

## CC(C)S(=O)(=O)n1c(N)nc2ccc(/C(=N/O)c3ccccc3)cc21 [Enviroxime]
[1]; CC50/EC50, RD, Neutral red
  SI50: 250
[1]; CC50/EC50, RD, Visual
  SI50: >320

## CC#C[C@]1(O)CC[C@H]2[C@@H]3CCC4=CC(=O)CCC4=C3[C@@H](c3ccc4c(c3)OCO4)C[C@@]21C [PT150, (11β,17β)-11-(1,3-benzodioxol-5-yl)-17-hydroxy-17-(1-propynyl)-estra-4,9-dien-3-one]
HIV-1 strain LAI
  SI50: 2.3
  SI50 (CC50/EC50): 2.3
Dengue 2; HuH-7, Neutral red
  SI50: 0
Dengue 2; HuH-7, Visual
  SI50: 1
Dengue 2; Dengue 2, HUH7
  SI50: 1
Yellow Fever 17D Vaccine
  SI50: 1.3
Yellow fever virus 17D
  SI50: 1
Zika virus MR766; CC50/EC50, HuH-7, Neutral red
  SI50: 1.1
Zika virus MR766; CC50/EC50, HuH-7, Visual
  SI50: 1
Zika virus MR766; Zika, Example 9
  SI90: 3.4
Zika virus MR766; [12]
  SI50: 2.7
Zika virus MR766; [13]
  SI50: 1
Zika virus MR766; Zika, HuH-7
  SI50 (CC50/EC50): 1.0
Tacaribe TRVL11573; CC50/EC50, Neutral red
  SI50: 1.1
Tacaribe TRVL11573; CC50/EC50, Visual
  SI50: 1.3
Tacaribe TRVL11573; Tacaribe, Table 4
  SI50: 1.1
Poliovirus type 3 WM-3
  SI50 (CC50/EC50): 1.3
  SI50: 1.5 and 1.3
[1]; CC50/EC50, RD, Neutral red
  SI50: 0
[1]; CC50/EC50, RD, Visual
  SI50: 1
[1]; Enterovirus 68, RD, Table 4
  SI50: 1
[2]; [14]
  SI50: 0
[2]; CC50/EC50, Vero 76, Visual
  SI50: 1
[2]; Enterovirus 71, Vero 76, Table 4, ratio CC50 / EC50
  SI50: 1
[2]; [15]
  SI50 (CC50/EC50): 1.0
[3]
  SI50: 1.1 and 1
[4]; MA-104, Neutral red
  SI50: 2.3
[4]; MA-104, Visual
  SI50: 1.8
[5]; [16]
  SI50: 7.9
[5]; NV GT1, Example 10
  SI50: >83
  SI90: >12
[5]; [17]
  SI50: >100
  SI90: >11
[5]
  SI50 (CC50/EC50): 7.9
MNV MNV-1; Example 11
  SI90: 110
MNV MNV-1; Example 11, listed as 16-000162
  SI90: 121
MNV MNV-1; Example 11, listed as 16-000162, ratio CC50 / EC50
  SI50: 384
MNV MNV-1; Example 11, ratio CC50 / EC50
  SI50: 351
[6]
  SI50: 0
[7]
  SI50: 1
[8]
  SI50: 1.3 and 1.1
[9]
  SI50: 1

## CC#CC1(O)CCC2C3CCC4=CC(=NNC(N)=S)CCC4=C3C(c3ccc4c(c3)OCO4)CC21C.CC#CC1(O)CCC2C3CCC4=CC(=O)CCC4=C3C(c3ccc4c(c3)OCO4)CC21C.CC(C)=O.CCO.O (stereo not drawn) [PT155, ⅓ (11β,17β)-17-Hydroxy-11-[3,4-(methylenedioxy)phenyl]-17-(1-propyn-1-yl)estra-4,9-dien-3-one (ORG34517)×(2EZ)-2-{(11β,17β)-17-hydroxy-11-[3,4-(methylenedioxy)phenyl]-17-(1-propyn-1-yl)estra-4,9-dien-3-ylidene}hydrazinecarbothioamide [71.8% (E), 28.2% (Z)] hemihydrate×¾% acetone× ⅛ ethanol]
HIV-1 strain LAI
  SI50: 15
  SI50 (CC50/EC50): 15.0
HIV-1 LAV
  ANTIVIRAL INDEX (AI) 50%: >23.1
  ANTIVIRAL INDEX (AI) 90%: >2.02
  ANTIVIRAL INDEX (AI) 95%: >1.38
HIV-1 LAV; OM-10.1, Table 7
  Selectivity Index (CC50/EC50): >23.1
Dengue 2; HuH-7, Neutral red
  SI50: 0
Dengue 2; HuH-7, Visual
  SI50: 0
Yellow Fever 17D Vaccine
  SI50: >1.8
  Selectivity index 50% SI50: 2.9
Yellow fever virus 17D
  Selectivity index 50% SI50: <1
Zika virus MR766; CC50/EC50, HuH-7, Neutral red
  SI50: 8.6
Zika virus MR766; CC50/EC50, HuH-7, Visual
  SI50: 88
Zika virus MR766; Zika, Example 9
  SI90: >122
Zika virus MR766; [12]
  SI50: >1800
Zika virus MR766; [13]
  SI50: 88.2
Zika virus MR766; Zika, HuH-7
  SI50 (CC50/EC50): 88.2
Zika virus MR766; Zika, HuH-7, Tables 5-6
  Selectivity index 50% SI50: 88.2
Tacaribe TRVL11573; CC50/EC50, Neutral red
  SI50: 0
Tacaribe TRVL11573; CC50/EC50, Visual
  SI50: 0
Rift Valley fever MP-12
  SI50: 2.3 and 3.9
  Selectivity index 50% SI50: 6.6
Poliovirus type 3 WM-3
  SI50 (CC50/EC50): 61.4
  SI90: >10
  Selectivity index 50% SI50: 61.4
  SI50: 55 and 62 and >34
[1]; CC50/EC50, RD, Neutral red
  SI50: 0
[1]; CC50/EC50, RD, Visual
  SI50: 1
[1]; Enterovirus D68, RD, Tables 5-6
  Selectivity index 50% SI50: <1
[2]; [14]
  SI50: 280
[2]; CC50/EC50, Vero 76, Visual
  SI50: 89
[2]; CC50/EC90, Enterovirus 71, Example 7
  SI90: 0
[2]; [15]
  SI50 (CC50/EC50): 89.0
[2]; Enterovirus 71, Vero 76, Tables 5-6
  Selectivity index 50% SI50: 89.0
[2]; Neutral Red, Enterovirus 71, Example 7, ratio CC50 / EC50
  SI50: >59
[3]
  SI50: 0
  Selectivity index 50% SI50: <1
[4]; MA-104, Neutral red
  SI50: 1.3
[4]; MA-104, Visual
  SI50: 1.2
[4]; Respiratory syncytial type A, MA-104
  Selectivity index 50% SI50: <1
[5]; [16]
  SI50: 4.3
[5]; NV GT1, Example 10
  SI50: >3
  SI90: >1
[5]; NV GT1, Example 10, listed as 16-000163
  SI50: >2
[5]
  SI50 (CC50/EC50): 4.3
[10]; Neutral Red
  SI50: 2
[10]; Visual
  SI50: 9.2
[11]; Neutral Red
  SI50: 0
[11]; Visual
  SI50: 0
MNV MNV-1; Example 11
  SI90: 117
MNV MNV-1; Example 11, listed as 16-000163
  SI90: 131
MNV MNV-1; Example 11, listed as 16-000163, ratio CC50 / EC50
  SI50: 427
MNV MNV-1; Example 11, ratio CC50 / EC50
  SI50: 391
[6]
  SI50: >2.8 and >3.1
[7]
  SI50: <4
[8]
  SI50: 0
[9]
  SI50: 1

## C[C@@]1(O)[C@H](O)[C@@H](CO)O[C@H]1n1ccc(N)nc1=O [RS-446]
[5]; [16]
  SI50: >44

## Nc1ccn([C@@H]2O[C@H](CO)[C@@H](O)[C@H]2O)c(=O)[n+]1[C-2][n+]1c(N)ccn([C@@H]2O[C@H](CO)[C@@H](O)[C@H]2O)c1=O [TCY-1, Bis(cytidin-3-ium-3-yl)methanediide monohydrochloride×1.25H2O]
HIV-1 strain LAI
  SI50 (CC50/EC50): >345

## O=c1c2ccccc2n2nnc3ccc(NCCCN4CCN(CCCNc5ccc6nnn7c8ccccc8c(=O)c5c67)CC4)c1c32 [Temacrazine (TMZ)]
HIV-1 LAV
  ANTIVIRAL INDEX (AI) 50%: >13.4
  ANTIVIRAL INDEX (AI) 90%: >1.56
  ANTIVIRAL INDEX (AI) 95%: >1.18

## CCOC(=O)c1ccc(OCCC2CCN(c3ccc(C)nn3)CC2)cc1 [pirodavir, reference compound]
Poliovirus type 3 WM-3
  SI50 (CC50/EC50): >31
  SI90: 56
[2]
  SI50 (CC50/EC50): >278
  SI90: >43

Several values for one entry are separate records, joined by “and”; a condition that tells them apart may be missing. Equal values may be shown once. Where a name gives a salt, the structure may show the parent alone. Read-outs that look alike come from different tables or passages of the source.
